Pooled drug test results. Numbers come from NIAID ChemDB, via PubChem.

Common to all: cytotoxicity tests; cells: VERO; measure: CC50

Blank or dashed fields: not listed here. CCn: concentration that lowers growth or viability of the cells by n%. Rows are shuffled and stem from different studies.

| smiles | method | value |
|---|---|---|
| CC(=O)Nc1nc(-c2ccccn2)cs1 | luminescence | >100 µM |
| Cc1cc2c(C)c3cc(C)c(N)cc3nc2cc1N | - | 0.51 µg/mL |
| CCCCCC(=O)N1[C@@H]2CC(n3cnc4c(Cl)ncnc43)[C@H]1c1ccccc12 | MTS | 12 µM |
| CC(=O)OC[C@H]1O[C@@H](n2ncc(=O)[nH]c2=O)[C@H](OC(C)=O)[C@@H]1OC(C)=O | neutral red | 50 µg/mL |
| O=C(NC1N=C(c2ccccc2)c2ccccc2NC1=O)c1ccncc1 | - | 2.5 µM |
| NC(=O)c1[nH]nc([C@@H]2O[C@H](CO)[C@@H](O)[C@H]2O)c1O | neutral red | 19 µg/mL |
| O=C(O)c1cn(C2CC2)c2cc(N3CCNCC3)c(F)cc2c1=O | - | >62.5 µg/mL |
| CC(C)(C)OC(=O)N1[C@H]2CC[C@@H]1C(n1cnc3c(NC4CC4)ncnc31)C2 | MTS | >135 µM |
| c1csc(-c2nnc(COc3ccc4c(c3)OCO4)o2)c1 | fluorescence | >100 µM |
| CN1CCN(CCCN2c3ccccc3Sc3ccc(C(F)(F)F)cc32)CC1 | - | 6.5 µg/mL |
| O=C1O[C@@H](CNC(=O)C(F)(F)F)[C@@H]2COc3cc(C4=CCN(CCO)CC4)c(F)cc3N12 | resazurin | >64 µg/mL |
| O=C(OCCCl)c1cnccn1 | MTS | >536 µM |
| CO[C@@]12[C@H](COC(N)=O)C3=C(C(=O)C(C)=C(N)C3=O)N1C[C@H]1[C@@H]2N1C(=O)c1ccc(Cl)cc1 | - | 1.36 µg/mL |
| Cc1ccc(-c2nc(C)c(-c3csc(-c4ccc(Br)cc4)n3)s2)cc1 | sulforhodamine | >80 µM |
| NNC(=O)C(=O)Nc1ccc(F)cc1 | - | >50 µg/mL |
| c1ccc(-c2csc(NC3CCCCC3)n2)nc1 | luminescence | 6 µM |
| CCC(C)COC(=O)Nc1cccc(Cl)c1 | - | 30 µg/mL |
| Cc1cc(C)c2cc(C(=O)NC3CCCCCC3)[nH]c2c1 | resazurin | >200 µM |
| CO[C@H]1/C=C/O[C@@]2(C)Oc3c(C)c(O)c4c(c3C2=O)C(=O)C(CO)=C(NC(=O)/C(C)=C\C=C\[C@H](C)[C@H](O)[C@@H](C)[C@@H](O)[C@@H](C)[C@H](OC(C)=O)[C@@H]1C)C4=O | - | 79.62 µg/mL |
| c1coc(-c2nnc(SCc3cccc4ccccc34)o2)c1 | fluorescence | >100 µM |
| CCN(CCNc1ccc(C)c2sc3ccccc3c(=O)c12)CC(C)(C)O | - | 13.75 µg/mL |
| O=C(OCCOC(=O)c1cnccn1)c1cnccn1 | MTS | >365 µM |
| Cc1cccc(C)c1Nc1cc(-c2ccccn2)ncn1 | luminescence | 57 µM |
| O=[N+]([O-])c1ccc2oc([N+](=O)[O-])cc2c1 | - | 0.31 µg/mL |
| CC(=O)NC[C@@H]1OC(=O)N2c3cc(F)c(C4=CCN(C(=O)CN)CC4)cc3OC[C@@H]12 | resazurin | >64 µg/mL |
| c1ccc(Nc2nc(-c3ccn[nH]3)cs2)nc1 | luminescence | 40 µM |
| Cc1nc(-c2ccccc2)sc1-c1csc(-c2cccc(Cl)c2)n1 | sulforhodamine | >80 µM |
| CC(=O)NC[C@@H]1OC(=O)N2c3ccc(C4=CCN(C(=O)CO)CC4)cc3OC[C@@H]12 | resazurin | 13.76 µg/mL |
| CN(C)CCCNc1ccc2ncn3c4ccccc4c(=O)c1c23 | - | 3.92 µg/mL |
| CO[C@H]1/C=C/O[C@@]2(C)Oc3c(C)c(O)c4c(O)c(c(/C=N/N5CCN(C)CC5)c(O)c4c3C2=O)NC(=O)/C(C)=C\C=C\[C@H](C)[C@H](O)[C@@H](C)[C@@H](O)[C@@H](C)[C@H](OC(C)=O)[C@@H]1C | MTS | >100 µM |
| c1csc(-c2nnc(Cc3cccc4ccccc34)o2)c1 | fluorescence | >100 µM |
| Nc1ncnc2c1[nH]c[n+]2C1C[C@@H]2CC[C@H]1[NH2+]2.O=C([O-])C(F)(F)F.O=C([O-])C(F)(F)F | MTS | >109 µM |
| COc1cccc(CC(=O)NC2N=C(c3ccccc3)c3ccccc3NC2=O)c1 | - | 3 µM |
| CC(C)(C)OC(=O)N1C[C@H]2CC(n3cnc4c(N)ncnc43)[C@@H]1C2 | MTS | >151 µM |
| CC(=O)NC[C@@H]1OC(=O)N2c3cc(F)c(C4=CCN(CCO)CC4)cc3OC[C@@H]12 | resazurin | >64 µg/mL |
| CCN1CCC(CCOC)(CN2c3ccccc3Sc3ccc(Cl)cc32)C1.Cl | - | 2.14 µg/mL |
| COC(=O)c1cnccn1 | MTS | >724 µM |
| O=C1Nc2ccccc2C(c2ccccc2)=NC1NCc1ccccc1C(F)(F)F | - | 30 µM |
| Clc1ncnc2c1ncn2C1C[C@H]2C[C@@H]1C[NH2+]2.O=C([O-])C(F)(F)F | MTS | 49 µM |
| CO[C@H]1/C=C/O[C@@]2(C)Oc3c(C)c(O)c4c(O)c(c(/C=N/N5CCN(C)CC5)c(O)c4c3C2=O)NC(=O)/C(C)=C\C=C\[C@H](C)[C@H](O)[C@@H](C)[C@@H](O)[C@@H](C)[C@H](OC(C)=O)[C@@H]1C | luminescence | >100 µM |
| Cc1cc2nc3ccc(N=Nc4ccc(N(C)C)cc4)cc3n(-c3ccccc3)c-2cc1=N | - | 0.08 µg/mL |
| COC(=O)NC[C@@H]1OC(=O)N2c3cc(F)c(C4=CCN(C(=O)CO)CC4)cc3OC[C@@H]12 | resazurin | >64 µg/mL |
| COC(=O)c1n[nH]c(C)c1N=NN1CCC(C(N)=O)CC1 | - | 5.7 µg/mL |
| O=C1C=CN([C@@H]2O[C@H](CO)[C@@H](O)[C@H]2O)C(=O)C1 | neutral red | 593 µg/mL |
| C/C(=N\NC(=O)c1ccncc1)C(F)(F)F | - | >62.5 µg/mL |
| O=C(NC1N=C(c2ccccc2)c2ccccc2NC1=O)c1ccccc1Cl | - | 2 µM |
| NC1=NN(c2ccccc2)C(=O)C1C(=O)C(=O)Nc1ccccc1 | - | >10 µg/mL |
| Cc1ccc(C(=O)Nc2ccc(S(=O)(=O)O)c3cc(S(=O)(=O)O)cc(S(=O)(=O)O)c23)cc1NC(=O)c1cccc(NC(=O)Nc2cccc(C(=O)Nc3cc(C(=O)Nc4ccc(S(=O)(=O)O)c5cc(S(=O)(=O)O)cc(S(=O)(=O)O)c45)ccc3C)c2)c1 | neutral red | 127 µg/mL |
| O=C1c2ccccc2C(=O)c2c1oc1cc(O)c(Cl)cc21 | - | >10 µg/mL |
| N#Cc1cccc(C2=N[C@H](C(=O)OCc3ccccc3)CO2)c1 | MTS / absorbance | 121 µM |
| O=C(NN1C(=O)CS(=O)(=O)C1c1ccc(C(F)(F)F)cc1)c1ccncc1 | - | >62.5 µg/mL |
| Cc1nc(-c2ccccc2)sc1-c1csc(-c2ccc(Cl)cc2)n1 | sulforhodamine | >80 µM |
| CC(=O)Nc1c2sscc-2n(C)c1=O | - | 0.4 µg/mL |
| Cc1nc(-c2ccc(Cl)cc2)sc1-c1csc(-c2ccc(F)cc2)n1 | sulforhodamine | >80 µM |

5 of the rows above, restated:

O=C(OCCOC(=O)c1cnccn1)c1cnccn1 ; method: MTS ; value: >365 µM
NNC(=O)C(=O)Nc1ccc(F)cc1 ; value: >50 µg/mL
c1ccc(Nc2nc(-c3ccn[nH]3)cs2)nc1 ; method: luminescence ; value: 40 µM
CO[C@H]1/C=C/O[C@@]2(C)Oc3c(C)c(O)c4c(O)c(c(/C=N/N5CCN(C)CC5)c(O)c4c3C2=O)NC(=O)/C(C)=C\C=C\[C@H](C)[C@H](O)[C@@H](C)[C@@H](O)[C@@H](C)[C@H](OC(C)=O)[C@@H]1C ; method: MTS ; value: >100 µM
Cc1nc(-c2ccccc2)sc1-c1csc(-c2ccc(Cl)cc2)n1 ; method: sulforhodamine ; value: >80 µM